Test results taken from patent US20070264355A1, “BINARY COMPOSITIONS AND METHODS FOR STERILIZATION” (Binary, LLC, priority 2005, published 2007).

Assay: Foam experiments (bleach with surface active agent plus hydrogen peroxide)
Assay type: physicochemical
[1] = 0-30 sec after mixing, agent 2% in 5.25% bleach (2 ml) + 2 ml 30% hydrogen peroxide
[2] = 5 min after mixing, agent 2% in 5.25% bleach (2 ml) + 2 ml 30% hydrogen peroxide

Compound | volume of foam [1] | volume of foam [2] | volume of foam (0-30 sec after mixing, agent 1% in bleach + 30% hydrogen peroxide) | volume of foam (5 min after mixing, agent 1% in bleach + 30% hydrogen peroxide)
CCCCCCCCCCCCOS(=O)(=O)[O-].[Na+] [SDS, Sodium dodecyl sulfate] | 32.5 mL | 35 mL |  | 
Sodium octylphenoxypolyethoxyethyl sulfonate [Triton x200] | 32.5 mL | 27.5 mL | 32.5 mL | 27.5 mL
Benzalkonium Chloride | 37.5 mL | 5 mL |  | 
Polyoxyethylene sorbitan monooleate [Tween 80] | 30 mL | 35 mL |  | 
Polyoxyethylene lauryl ether [BRIJ 35] | 30 mL | 35 mL |  | 
